Values of other authors, collected in PMC3707847 (PLoS ONE, 2013).

Test system: RNA polymerase of hepatitis C virus
Settings: cited from earlier work

Row | SMILES | Error rate of HCV RNA polymerase, G:U mismatch | Error rate of HCV RNA polymerase, A:C mismatch
1 | Nc1nc2c(ncn2[C@@H]2O[C@H](COP(=O)(O)OP(=O)(O)OP(=O)(O)O)[C@@H](O)[C@H]2O)c(=O)[nH]1 [GTP] | 8.7×10^−3 | –
2 | Nc1ncnc2c1ncn2[C@@H]1O[C@H](COP(=O)(O)OP(=O)(O)OP(=O)(O)O)[C@@H](O)[C@H]1O [ATP] | – | 2.3×10^−6
